Anti-infective test results gathered from many reports (values: NIAID ChemDB through PubChem).

Common to all: tests on isolated targets; species: HIV-1; target: Protease; read by: HPLC; read-out: Ki

Conditions beyond the fields shown may differ between rows.

smiles | setting | strain or isolate | result
CC(=O)C[C@H](NC(=O)c1ccc2ccccc2n1)C(=O)N[C@@H](Cc1ccccc1)[C@@H](O)CN(CC(C)C)S(=O)(=O)c1ccc(NC(C)=O)cc1 |  |  | 0.4 µM
CC(C)[C@H](NC(=O)[C@@H](NC(=O)[C@H](C)C[C@H](O)[C@H](Cc1ccccc1)NC(=O)[C@H](C)NC(=O)OCc1ccccc1)C(C)C)C(=O)O |  |  | 0.002 µM
O=C(N[C@@H](Cc1ccccc1)[C@H](O)CN1CCCCC12C(=O)Nc1ccccc12)O[C@H]1CO[C@H]2OCC[C@H]21 |  |  | >1000 µM
COc1ccc(S(=O)(=O)N(CC(O)CN2C(=O)C3(CCCC3)N(C)C[C@@H]2Cc2ccccc2)CC2CCCC2)cc1 |  |  | >20 µM
CC(=O)Nc1ccc(S(=O)(=O)N(CC(C)C)C[C@@H](O)[C@H](Cc2ccccc2)NC(=O)O[C@H]2CCOC2)cc1 |  |  | 0.02 µM
C=C(C)CN(C[C@@H](O)[C@H](Cc1ccccc1)NC(=O)OC(C)(C)C)S(=O)(=O)c1ccc(F)cc1 |  |  | 0.06 µM
CC(C)[C@H](NC(=O)[C@H](Cc1ccccc1)C[C@H](O)[C@H](Cc1ccccc1)NC(=O)OC(C)(C)C)C(=O)N=C(N)N |  |  | 0.0031 µM
COC(=O)[C@@H](NC(=O)[C@@H](NC(=O)CC[C@H](O)[C@H](Cc1ccccc1)NC(=O)[C@H](C)NC(=O)[C@H](C)N)C(C)C)C(C)C |  |  | 0.004 µM
O=C(N[C@@H](Cc1ccccc1)[C@H](O)CN(CC1CCCC1)S(=O)(=O)c1ccc(F)cc1)O[C@@H]1CCOC1 |  |  | 0.0002 µM
COc1ccc(S(=O)(=O)N(CC(C)C)C[C@@H](O)C[C@@H](CNCC(C)C)Cc2ccccc2)cc1 | pH 4.7 | IIIB | 5 µM
COc1ccc(S(=O)(=O)N(CC2CCCC2)C[C@@H](O)[C@H](Cc2ccccc2)NC(=O)O[C@@H]2CCOC2)cc1 |  |  | <0.0001 µM
CC(C)[C@H](NC(=O)[C@H](Cc1ccccc1)C[C@H](O)[C@H](Cc1ccccc1)NC(=O)[C@H](C)NC(=O)OCc1ccccc1)C(N)=O |  |  | 0.0006 µM
CC(=O)Nc1ccc(S(=O)(=O)N(CC(C)C)C[C@@H](O)[C@H](Cc2ccccc2)NC(=O)O[C@H]2CCOC2)cc1 |  |  | 0.02 µM
COc1ccc(S(=O)(=O)N(CC(C)C)C[C@@H](O)CCN(CCC2CCCC2)C(=O)O[C@H]2CCOC2)cc1 | pH 4.7 | IIIB | >10 µM
COC(=O)CC1C[C@H](Cc2ccccc2)N(CC(O)CN(CC2CCCC2)S(=O)(=O)c2ccc(OC)cc2)C1=O |  |  | 0.12 µM
CC(C)[C@H](NC(=O)OCc1ccccc1)C(=O)N[C@@H](Cc1ccccc1)P(C)(=O)[C@H](Cc1ccccc1)NC(=O)[C@@H](NC(=O)OCc1ccccc1)C(C)C |  |  | >1000 µM
CC(=O)C[C@H](NC(=O)c1ccc2ccccc2n1)C(=O)N[C@@H](Cc1ccccc1)[C@@H](O)CN(CC(C)C)S(=O)(=O)c1ccc(NC(C)=O)cc1 |  |  | 0.4 µM
O=C(N[C@@H](Cc1ccccc1)[C@H](O)CN1CCCCCC12C(=O)Nc1ccccc12)O[C@H]1CO[C@H]2OCC[C@H]21 |  |  | >1000 µM
CC(C)C(=O)c1cnc([C@H](Cc2ccccc2)C[C@H](O)[C@H](Cc2ccccc2)NC(=O)[C@@H](NC(=O)OCc2ccccc2)C(C)C)[nH]1 |  |  | 0.0022 µM
CC[C@H](C)[C@@H](C=O)NC(=O)[C@H](CO)NC(=O)[C@H](Cc1ccc(O)cc1)NC(=O)[C@H](CCC(=O)O)NC(=O)[C@H](CC(C)C)NC(=O)[C@@H](N)CC(C)C |  |  | 0.013 µM
CC(C)(C)OC(=O)N[C@H](Cc1ccc(O)cc1)/C(O)=C(\C#N)c1c(F)c(F)c(F)c(F)c1F |  |  | 0.64 µM
COc1ccc(S(=O)(=O)N(CC2CCCC2)C[C@@H](O)[C@H](Cc2ccccc2)NC(=O)O[C@@H]2CCOC2)cc1 |  |  | <0.0001 µM
COc1ccc(S(=O)(=O)N(CC(O)CN2C(=O)C(C)(CC(C)C)NC[C@@H]2Cc2ccccc2)CC2CCCC2)cc1 |  |  | 0.13 µM
COC(=O)[C@@H](NC(=O)[C@@H](NC(=O)C1CCCC1P(=O)(O)[C@H](Cc1ccccc1)NC(=O)[C@H](C)NC(=O)[C@H](C)NC(=O)[C@@H](N)CO)C(C)C)C(C)C |  |  | 4 µM
CC(C)[C@H](NC(=O)[C@H](Cc1ccccc1)C[C@H](O)[C@H](Cc1ccccc1)NC(=O)OC(C)(C)C)C(N)=O |  |  | 0.0014 µM
CC[C@H](C)[C@@H](NC(=O)[C@@H](C[C@H](O)[C@H](CC(C)C)NC(=O)[C@H](Cc1cnc[nH]1)NC(=O)[C@H](Cc1ccccc1)NC(=O)[C@@H]1CCCN1C(=O)[C@@H](N)Cc1cnc[nH]1)C(C)C)C(=O)N[C@@H](Cc1cnc[nH]1)C(=O)O | pH 7.0 |  | 0.025 µM

2 of the rows above, restated:

smiles,setting,strain or isolate,result
CC(C)[C@H](NC(=O)OCc1ccccc1)C(=O)N[C@@H](Cc1ccccc1)P(C)(=O)[C@H](Cc1ccccc1)NC(=O)[C@@H](NC(=O)OCc1ccccc1)C(C)C,,,>1000 µM
CC(=O)C[C@H](NC(=O)c1ccc2ccccc2n1)C(=O)N[C@@H](Cc1ccccc1)[C@@H](O)CN(CC(C)C)S(=O)(=O)c1ccc(NC(C)=O)cc1,,,0.4 µM

Blank or dashed fields: not listed here.